Columns and labels:
[1] = test system: MRSA; experiment: Antimicrobial susceptibility testing, broth microdilution (CLSI); assay type: cell-based, Staphylococcus aureus; conditions: 18 hr at 37° C.
Description: In some examples, compounds can be further assayed using the Mueller Hinton (MH) broth antibacterial assay as specified by the Clinical and Laboratory Standards Institute MIC broth microdilution protocol (see Methods for Dilution Antimicrobial Susceptibility Tests for Bacteria That Grow Aerobically; Approved Standard, In The Clinical and Laboratory Standards Institute (CLSI, formerly NCCLS), 7th ed., January 2006, 26 (2), M7-A7; see also Performance Standards for Antimicrobial Susceptibility Testing; Eighteenth Informational Supplement, In The Clinical and Laboratory Standards Institute (CLSI, formerly NCCLS), January 2008, 28 (1), M100-S18).
In vitro activities of RNPA-2000 (labeled in FIG. 4 as ST003531), RNPA-3000 (labeled in FIG. 4 as ST0006630), ST040225, and ST025201 against bacteria were determined by the broth microdilution method according to the Clinical and Laboratory Standards Institute (CLSI) guidelines using cation adjusted Mueller-Hinton broth or MH broth supplemented with 5% lysed horse blood (for testing Streptococcus spp.). Microtiter plates containing serial dilutions of the compounds 1000 (0, 4, 8, 16, 32, 64, and 128 μg/ml) were inoculated with 10^5 colony forming units (CFU)/ml and incubated for 18 hr at 37° C.

Chains of the proteins cited; added tags and fusions are not shown.
UniProt P0A0H5, whole entry: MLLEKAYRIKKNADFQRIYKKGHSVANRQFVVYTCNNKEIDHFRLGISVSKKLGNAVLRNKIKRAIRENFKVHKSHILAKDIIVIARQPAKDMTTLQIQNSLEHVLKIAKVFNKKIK

[2] = molecular target: S. aureus RnpA (Staphylococcus aureus, UniProt P0A0H5); experiment: RnpA-mediated RNA (spa mRNA) degradation inhibitory titration assay; assay type: biochemical; conditions: read-out: apparent IC50; 1 pmol spa mRNA, 20 pmol RnpA, one hour at 37° C., agarose gel
Method: Specifically, members of the ActiProbe-25K and Natural Product libraries (29,940 compounds total; TimTec Inc.; Newark, Del.) were screened for small molecule inhibitors of S. aureus RnpA mediated total bacterial RNA degradation. All reactions (50 μl) were performed in 96-well format and contained 20 pmol RnpA, 200 ng S. aureus total RNA, and ˜5 μM of each compound in 1× reaction buffer (2 mM NaCl, 2 mM MgCl2, 50 mM Tris-HCl, pH 6.0). Mixtures were incubated at 37° C. for 20 min at which time Quant-iT RiboGreen® (100 μl; Invitrogen) was added to quantify the amount of RNA substrate remaining. Percent enzyme inhibition was calculated as remaining substrate/starting substrate*100. For inhibitory titration assays, 1 pmol of spa mRNA was incubated with 20 pmol RnpA alone (positive control) or in the presence of one of four compounds for one hour at 37° C. The compounds included RNPA-2000 (labeled in FIG. 4 as ST003531) in increasing amounts (0, 2.5, 5, 10, 12.5, 15, 17.5, and 20 μM); RNPA-3000 (labeled in FIG. 4 as ST0006630) in increasing amounts (0, 2.5, 5, 10, 12.5, 15, 20, and 25 μM); ST040225 in increasing amounts (0, 25, 50, 100, 200, 400, 800, and 1000 μM); and ST025201 (0, 1, 2.5, 5, 10, 25, and 50 μM). Following this, 20 μl of each reaction mixture were subjected to electrophoresis in a 1.2% formaldehyde-containing agarose gel and visualized by ethidium bromide staining.

In the case of `O=C1NC(=S)N(c2ccc(Cl)cc2)C(=O)C1=Cc1ccc(-c2ccccc2C(=O)O)o1`, the “antimicrobial activity against MRSA (in words)” value [1] is reported as “exhibits antimicrobial effects” and the IC50 [2] is reported as 5 to 10 µM.

Reference: patent publication US9517230B2, “Small molecule RNase inhibitors and methods of use” (UNIVERSITY OF ROCHESTER, priority 2011, dated 2016)
